Pooled drug test results. Numbers come from NIAID ChemDB, via PubChem.

Common to all: growth or infection tests; agent: HIV-1; read by: cytopathic effect / MTT; read-out: EC50

Blank or dashed fields: not listed here. Conditions beyond the fields shown may differ between rows. ECn: concentration that inhibits the pathogen or its effect by n%.

smiles,strain or isolate,cells,changes,result
CC1c2nnc(-c3ccccc3)n2-c2ccccc2-n2c(-c3ccccc3)nnc21,IIIB,MT-4,,>4 µM
C1CNCCNCCCN[C@H]([C@@H]2CNCCCNCCNCCCN2)CNC1,IIIB,MT-4,,0.43 µM
c1cc(CN2CCCNCCNCCCNCC2)cc(CN2CCCNCCNCCCNCC2)c1,IIIB,MT-4,,0.04 µg/mL
Fc1cccc(F)c1C1SCc2nc3ccccc3n21,IIIB,CEM,,1.39 µM
C(CCCN1CCCNCCNCCCNCC1)CCN1CCCNCCNCCCNCC1,IIIB,MT-4,,0.616 µM
Clc1cc(CN2CCCNCCNCCCNCC2)c(Cl)cc1CN1CCCNCCNCCCNCC1,NL4-3,MT-4,,0.036 µg/mL
O=c1[nH]cnc2c1ncn2[C@H]1CC[C@@H](CO)O1,IIIB,MT-4,,1.6 µM
Fc1ccc2c(c1)nc1n2C(c2c(Cl)cccc2Cl)SC1,IIIB,MT-4,,>13.2 µM
Nc1ccn([C@H]2CC[C@@H](CO)O2)c(=O)n1,LAI,MT-2,,4 µM
CCc1cc(CCc2nc3ccccc3o2)c(=O)[nH]c1C,IIIB,MT-4,,0.022 µM
CC1c2nnc(-c3ccncc3)n2-c2ccccc2-n2c(-c3ccncc3)nnc21,IIIB,MT-4,,>200 µM
Cc1ccc(N(C(=O)c2cccc([N+](=O)[O-])c2)C(=S)OCCN2C(=O)c3ccccc3C2=O)cc1,IIIB,MT-4,,0.02 µM
O=C(O)P(=O)(O)O,LAI viral clone (RT-Q161L H208Y),MT-2,RT-Q161L H208Y,213 µM
ClC1(Cl)c2nnc(-c3ccccc3)n2-c2ccccc2-n2c(-c3ccccc3)nnc21,IIIB,MT-4,,>30 µM
CC(C)[C@H](NC(=O)N(C)Cc1ccccn1)C(=O)N[C@@H](Cc1ccccc1)[C@H](O)[C@@H](O)[C@H](Cc1ccccc1)NC(=O)[C@@H](NC(=O)N(C)Cc1ccccn1)C(C)C,IIIB,MT-4,,0.17 µM
COc1ccc2nc3n(c2c1)C(c1c(F)cccc1F)SC3,IIIB,MT-4,,>392 µM
O=C1Nc2cccnc2N(C2CC2)c2ncccc21,IIIB,MT-4,,1 µM
O=[N+]([O-])c1cc(CN2CCCNCCNCCCNCC2)cc(CN2CCCNCCNCCCNCC2)c1,NL4-3,MT-4,,0.134 µg/mL
CC(C)=CCN1Cc2cccc3[nH]c(=S)n(c23)C[C@@H]1C,IIIB,MT-4,,0.18 µM
C1CNCCNCCCN(CCCN2CCCNCCNCCCNCC2)CCNC1,IIIB,MT-4,,0.248 µM
O=S(=O)(O)OCC1OC(OC2C(COS(=O)(=O)O)OC(O)C(O)C2OS(=O)(=O)O)C(OS(=O)(=O)O)C(O)C1OC1OC(COS(=O)(=O)O)C(OC2OC(COS(=O)(=O)O)C(OC3OC(COS(=O)(=O)O)C(OC4OC(COS(=O)(=O)O)C(OS(=O)(=O)O)C(OS(=O)(=O)O)C4O)C(OS(=O)(=O)O)C3O)C(O)C2OS(=O)(=O)O)C(OS(=O)(=O)O)C1O,IIIB,MT-4,,207 µg/mL
O=C(O)/C(O)=C/c1ccc(Oc2ccccc2)cn1,IIIB,MT-4,,78 µM
c1ccc(-c2cc(CN3CCCNCCNCCCNCC3)ccc2CN2CCCNCCNCCCNCC2)cc1,NL4-3,MT-4,,0.134 µg/mL
Fc1ccc2nc3n(c2c1)C(c1c(Cl)cccc1Cl)SC3,IIIB,MT-4,,>368 µM
Fc1c(F)c(CN2CCCNCCNCCCNCC2)c(F)c(F)c1CN1CCCNCCNCCCNCC1,NL4-3,MT-4,AMD3100-resistant,0.48 µg/mL
Cc1nnc2n1-c1ccccc1-n1c(C)nnc1C2,IIIB,MT-4,,>200 µM
CCCCCCCCCCCCCCCCCCOC1OC(COS(=O)(=O)O)C(OC2OC(COS(=O)(=O)O)C(OC3OC(COS(=O)(=O)O)C(OC4OC(COS(=O)(=O)O)C(OC5OC(COS(=O)(=O)O)C(OC6OC(COS(=O)(=O)O)C(OS(=O)(=O)O)C(OS(=O)(=O)O)C6O)C(OS(=O)(=O)O)C5O)C(O)C4OS(=O)(=O)O)C(O)C3OS(=O)(=O)O)C(OS(=O)(=O)O)C2O)C(OS(=O)(=O)O)C1O,IIIB,MT-4,,0.4 µg/mL
Cc1ccnc2c1NC(=O)c1cccnc1N2C1CC1,IIIB-R (RT-Y181C),MT-4,RT-Y181C,>224 µM
Cc1cn([C@H]2C=C[C@@H](CO)O2)c(=O)[nH]c1=O,IIIB,MT-4,,1.1 µM
CCCCCCCCCCCCCCCCOC1OC(COS(=O)(=O)O)C(O)C(OC2OC(COS(=O)(=O)O)C(OS(=O)(=O)O)C(OC3OC(COS(=O)(=O)O)C(O)C(OC4OC(COS(=O)(=O)O)C(OS(=O)(=O)O)C(OC5OC(COS(=O)(=O)O)C(OS(=O)(=O)O)C(OS(=O)(=O)O)C5OS(=O)(=O)O)C4OS(=O)(=O)O)C3OS(=O)(=O)O)C2OS(=O)(=O)O)C1OS(=O)(=O)O,IIIB,MT-4,,12 µg/mL
Cc1cn([C@H]2C[C@H](N=[N+]=[N-])[C@@H](CO)O2)c(=O)n(N)c1=O,BRU,CEM-C113 + CEM/C113,,0.03 µM
O=C1Nc2c(C(F)(F)F)ccnc2N(C2CC2)c2ncccc21,IIIB,MT-4,,>200 µM
Fc1ccc2nc3n(c2c1)C(c1c(F)cccc1F)SC3,IIIB,MT-4,,14.7 µM
CC1c2nnc(-c3ccccc3)n2-c2ccc(C(F)(F)F)cc2-n2c(-c3ccccc3)nnc21,IIIB,MT-4,,>137 µM
O=C(c1ccccc1)c1ccc2nc3n(c2c1)C(c1c(F)cccc1F)SC3,IIIB,MT-4,,>1.3 µM
c1ccc2c(c1)-n1cnnc1Cc1nncn1-2,IIIB,MT-4,,>200 µM
COc1c(O)c(Cl)c2c(c1OC)-c1c(c(Cl)c(O)c(OC)c1OC)C[C@H](C)[C@H](C)C2,1506-RS (RT-Y188L),MT-4,RT-Y188L,>20 µM
CC(C)c1nc(COC(N)=O)n(Cc2ccncc2)c1S(=O)c1cc(Cl)cc(Cl)c1,,MT-4,,0.5 µg/mL
Cc1cn([C@H]2C[C@H](N=[N+]=[N-])[C@@H](CO)O2)c(=O)[nH]c1=O,214,CEM + CEM-SS,,0.01 µM
Cc1cn([C@H]2C[C@H](N=[N+]=[N-])[C@@H](CO)O2)c(=O)[nH]c1=O,1506-RS (RT-Y188L),MT-4,RT-Y188L,0.07 µM
COc1ccc2c(c1)nc1n2C(c2c(F)cccc2Cl)SC1,IIIB,MT-4,,>1.8 µM
c1cc(CN2CCCNCCCNCCNCCC2)cc(CN2CCCNCCCNCCNCCC2)c1,168.10,SupT1 + Sup-T1,,0.24 µg/mL
ClC1c2nnc(-c3ccccc3)n2-c2ccccc2-n2c(-c3ccccc3)nnc21,IIIB,MT-4,,>3 µM
O=C(c1ccccc1)c1ccc2c(c1)nc1n2C(c2c(F)cccc2Cl)SC1,IIIB,MT-4,,>26.7 µM
CC(C)[C@H](NC(=O)N(C)Cc1ccccn1)C(=O)N[C@@H](Cc1ccccc1)[C@@H](O)[C@H](O)[C@H](Cc1ccccc1)NC(=O)[C@@H](NC(=O)N(C)Cc1ccccn1)C(C)C,IIIB,MT-4,,1.54 µM
O=C(c1ccccc1)c1ccc2nc3n(c2c1)C(c1c(Cl)cccc1Cl)SC3,IIIB,MT-4,,>1.3 µM
C1CNCCNCCCN(CCCN2CCCNCCNCCCNCC2)CCNC1,NL4-3,MT-4,AMD3100-resistant,>25 µg/mL
CCCCCCCCCCCCOC1OC(COS(=O)(=O)O)C(OC2OC(COS(=O)(=O)O)C(OC3OC(COS(=O)(=O)O)C(OC4OC(COS(=O)(=O)O)C(OC5OC(COS(=O)(=O)O)C(OC6OC(COS(=O)(=O)O)C(OS(=O)(=O)O)C(OS(=O)(=O)O)C6O)C(OS(=O)(=O)O)C5OS(=O)(=O)O)C(O)C4OS(=O)(=O)O)C(OS(=O)(=O)O)C3O)C(OS(=O)(=O)O)C2O)C(O)C1OS(=O)(=O)O,IIIB,MT-4,,1 µg/mL

For reference, 7 entries again:

| smiles | strain or isolate | cells | changes | result |
|---|---|---|---|---|
| Cc1cn([C@H]2C=C[C@@H](CO)O2)c(=O)[nH]c1=O | IIIB | MT-4 |  | 1.1 µM |
| C1CNCCNCCCN(CCCN2CCCNCCNCCCNCC2)CCNC1 | IIIB | MT-4 |  | 0.248 µM |
| O=C(c1ccccc1)c1ccc2c(c1)nc1n2C(c2c(F)cccc2Cl)SC1 | IIIB | MT-4 |  | >26.7 µM |
| c1cc(CN2CCCNCCNCCCNCC2)cc(CN2CCCNCCNCCCNCC2)c1 | IIIB | MT-4 |  | 0.04 µg/mL |
| COc1ccc2nc3n(c2c1)C(c1c(F)cccc1F)SC3 | IIIB | MT-4 |  | >392 µM |
| O=C(O)P(=O)(O)O | LAI viral clone (RT-Q161L H208Y) | MT-2 | RT-Q161L H208Y | 213 µM |
| O=[N+]([O-])c1cc(CN2CCCNCCNCCCNCC2)cc(CN2CCCNCCNCCCNCC2)c1 | NL4-3 | MT-4 |  | 0.134 µg/mL |